Anti-infective test results gathered from many reports (values: NIAID ChemDB through PubChem).

Shared fields: target-level tests; species: Hepatitis C virus

Lines come from different laboratories, so protocols vary.

compound,tested at,target,read-out,value
O=C(NC(Cc1ccc(O)cc1)C(=O)O)c1ccc2c(c1)nc(-c1ccc3nc(-c4ccccc4)cnc3c1)n2C1CCCCC1,100 µM,NS5B polymerase,inhibition,99.11%
O=C(Nc1cc(Cl)cc(-c2nc(C(=O)O)c(O)c(=O)[nH]2)c1NS(=O)(=O)c1ccc2ccccc2c1)c1cccs1,-,HCV polymerase,IC50,<100 µM
O=C(O)c1ccc2c(c1)nc(-c1ccc3nc(CCn4cccn4)ccc3c1)n2C1CCCCC1,33 µM,NS5B polymerase,inhibition,97.35%
O=C(Nc1cscc1-c1nc(C(=O)O)c(O)c(=O)[nH]1)OCc1ccccc1,-,HCV polymerase,IC50,<25 µM
Cc1ccc(C(=O)N(C)c2cc(-c3ccc(F)cc3)sc2C(=O)O)cc1,-,NS3 ATPase,IC50,<5 µM
CNC(=O)c1c(-c2ccc(F)cc2)oc2cc(-c3c(C)noc3C)c(O)cc12,-,Nonstructural protein 5B,IC50,≤0.5 µM
COc1ccc([N+](=O)[O-])cc1COc1cccc(-c2nc(C(=O)O)c(O)c(=O)[nH]2)c1,-,HCV polymerase,IC50,<100 µM
O=C(O)c1cc2nc(-c3ccc(Oc4cccc(C(F)(F)F)c4)cc3)c(C3CCCCC3)c(=O)n2[nH]1,-,RNA-dependent RNA polymerase,IC50,<1 µM
COCCOc1cccc(-c2ccc3cc(-c4nc5cc(C(=O)O)ccc5n4C4CCCCC4)ccc3n2)c1,100 µM,NS5B polymerase,inhibition,99.64%
CNC(=O)c1c(-c2ccc(F)cc2)oc2cc(S(=O)(=O)N(C)C)c(OC(C)C)cc12,-,Nonstructural protein 5B,IC50,≤0.5 µM
Cc1ccccc1S(=O)(=O)Nc1cc(-c2cc(NS(=O)(=O)c3ccccc3C)c(C(=O)O)s2)sc1C(=O)O,-,NS3 ATPase,IC50,<5 µM
Clc1cccc(Oc2ccc(-c3cnc4c(-c5nn[nH]n5)cnn4c3C3CCCCC3)cc2)c1,-,RNA-dependent RNA polymerase,IC50,<1 µM
O=C(O)c1ccc2c(c1)nc(-c1ccc3nc(-c4ccccc4-c4ccc(Cl)cc4)ccc3c1)n2C1CCCCC1,100 µM,NS5B polymerase,inhibition,98.68%
O=S(=O)(Nc1csc(-c2ccc(Cl)cc2)c1)c1ccccn1,-,NS3 ATPase,IC50,5–20 µM
O=C(O)c1cc2nc(-c3ccc(Cl)cc3Cl)cc(-c3ccccc3OCc3ccccc3)n2n1,-,RNA-dependent RNA polymerase,IC50,1–10 µM
O=C(NC(Cc1c[nH]c2ccc(O)cc12)C(=O)O)c1ccc2c(c1)nc(-c1ccc3nc(-c4ccccc4)cnc3c1)n2C1CCCCC1,33 µM,NS5B polymerase,inhibition,98.59%
CC(C)(C)OC(=O)Nc1ccsc1-c1nc(C(=O)O)c(O)c(=O)[nH]1,-,HCV polymerase,IC50,<25 µM
O=C(O)CCC(NC(=O)c1ccc2c(c1)nc(-c1ccc3nc(-c4ccccc4)cnc3c1)n2C1CCCCC1)C(=O)O,100 µM,NS5B polymerase,inhibition,97.38%
COc1ccc(-c2nc3cc(C(=O)O)[nH]n3c(=O)c2-c2ccc(OC)cc2)cc1,-,RNA-dependent RNA polymerase,IC50,>10 µM
Cc1ccsc1CCOC(=O)Nc1ccsc1-c1nc(C(=O)O)c(O)c(=O)[nH]1,-,HCV polymerase,IC50,<25 µM
O=C(O)c1cnn2c(C3CCCCC3)c(C3CC3c3ccccc3)cnc12,-,RNA-dependent RNA polymerase,IC50,>10 µM
O=C(Cc1c(-c2ccccc2)[nH]c2ccccc12)Nc1ccsc1-c1nc(C(=O)O)c(O)c(=O)[nH]1,-,HCV polymerase,IC50,<25 µM
CNC(=O)c1c(-c2ccc(F)cc2)oc2cc(N(C)S(C)(=O)=O)c(OCc3ccc(OC)cc3)cc12,-,Nonstructural protein 5B,IC50,≤0.5 µM
C[C@@H](O)C(NC(=O)c1ccc2c(c1)nc(-c1ccc3nc(-c4ccccc4)cnc3c1)n2C1CCCCC1)C(=O)O,33 µM,NS5B polymerase,inhibition,78.89%
CCCCCc1ccc(CS(=O)(=O)Nc2cc(-c3ccccc3)sc2C(=O)O)cc1,-,NS3 ATPase,IC50,5–20 µM
CNC(=O)c1c(-c2ccc(F)cc2)oc2cc(-c3noc(C)n3)c(OC(C)C)cc12,-,Nonstructural protein 5B,IC50,≤0.5 µM
CN(C(=O)c1ccc(Cl)c(Cl)c1)c1cc(-c2ccccc2)sc1C(=O)O,-,NS3 ATPase,IC50,5–20 µM
O=C(N[C@H](C(=O)O)c1ccc(O)cc1)c1cnn2c(C3CCCCC3)c(-c3ccc(Cl)cc3)cnc12,-,RNA-dependent RNA polymerase,IC50,<1 µM
O=C(Nc1cccc(-c2nc(C(=O)O)c(O)c(=O)[nH]2)c1)Nc1ccc(Cl)c(C(F)(F)F)c1,-,HCV polymerase,IC50,<100 µM
Cc1nc(N)sc1-c1ccc2cc(-c3nc4cc(C(=O)O)ccc4n3C3CCCCC3)ccc2n1,100 µM,NS5B polymerase,inhibition,97.45%
Cc1cnc2c(-c3nn[nH]n3)cnn2c1C1CCCCC1,-,RNA-dependent RNA polymerase,IC50,>10 µM
Cc1ccc(C(=O)N(Cc2cccc(C(C)(C)C)c2)c2cc(-c3ccccc3)sc2C(=O)O)cc1,-,NS3 ATPase,IC50,<5 µM
O=C(O)c1cc2nc(-c3cccc(Cl)c3)cc(-c3ccc(Cl)cc3)n2n1,-,RNA-dependent RNA polymerase,IC50,>10 µM
O=C(O)c1sc(-c2ccc(F)cc2)cc1NS(=O)(=O)c1ccccn1,-,NS3 ATPase,IC50,<5 µM

A second listing of 3 rows from above:

compound,tested at,target,read-out,value
O=C(O)c1ccc2c(c1)nc(-c1ccc3nc(-c4ccccc4-c4ccc(Cl)cc4)ccc3c1)n2C1CCCCC1,100 µM,NS5B polymerase,inhibition,98.68%
Clc1cccc(Oc2ccc(-c3cnc4c(-c5nn[nH]n5)cnn4c3C3CCCCC3)cc2)c1,-,RNA-dependent RNA polymerase,IC50,<1 µM
O=C(O)c1cc2nc(-c3cccc(Cl)c3)cc(-c3ccc(Cl)cc3)n2n1,-,RNA-dependent RNA polymerase,IC50,>10 µM

Percent inhibition refers to the dose given; in toxicity tests it is the harm to the cells. ICn: concentration for n% inhibition. Blank or dashed fields: not listed here. Two numbers with a dash give a range or band.